Data source: PubChem BioAssay AID1259414 (Drosophila RNAi Screening Center, 2018)
The screen tested about 24,000 reagents; shown is an unselected part of those that have a named target and a result. In the full data, about 1,210 (5%) were called active. 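Inactive calls also include excluded dsRNAs with several or no targets, genes unexpressed in JW18, and well A1, regardless of score.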

Purpose: 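Fly genes that alter Wolbachia amount inside host cells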 (primary screen)
Cell system: Drosophila JW18 cells infected with Wolbachia
Knock-down reagent: long dsRNA against Drosophila genes, 0.25 µg dsRNA per well of a 384-well plate
Time to read-out: 5 days
Conditions: cells persistently infected with Wolbachia before knock-down; no added drug
Read-out: 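Automated imaging of bacterial rRNA staining divided by host cell count, reported as plate-normalised robust z-score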
Direction: Wolbachia per cell robust z: higher = more Wolbachia per host cell than the plate typical
Active means: 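Active if absolute robust z reaches 1.5 in two or more of three replicates, leaving out multi- or no-target dsRNAs, genes unexpressed in JW18 and A1 wells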

gene knocked down | amplicon | Wolbachia per cell robust z, rep 1 | Wolbachia per cell robust z, rep 2 | Wolbachia per cell robust z, rep 3 | call
CG31627 | DRSC22143 | -0.357 | 0.428 | 0.0983 | inactive
CG10904 | DRSC04084 | -0.119 | 0.213 | 0.179 | inactive
Cyt-c-p (Cytochrome c proximal) | DRSC03310 | 0.642 | 0.686 | -1.66 | inactive
AP-1mu (Adaptor Protein complex 1, mu subunit) | DRSC14089 | -0.805 | -2.08 | -0.233 | inactive
AP-1mu (Adaptor Protein complex 1, mu subunit) | DRSC25744 | 1.08 | 0.172 | -0.501 | inactive
lncRNA:CR34044 (long non-coding RNA:CR34044) | DRSC37789 | 0.325 | 0.998 | -0.167 | inactive
CG9705 | DRSC11094 | -1.05 | 0.599 | 0.791 | inactive
CG17129 | DRSC08508 | -0.514 | -0.79 | -0.45 | inactive
Cht7 (Chitinase 7) | DRSC08538 | 0.938 | 0.576 | 0.822 | inactive
Cht7 (Chitinase 7) | DRSC21783 | -1.38 | -0.947 | 0.707 | inactive
CG13454 | DRSC10001 | 0.467 | -0.48 | -0.5 | inactive
CG9676 | DRSC20204 | -0.946 | 0.342 | -2.24 | inactive
CG12825 | DRSC06174 | -0.41 | 0.631 | 0.502 | inactive
CG12825 | DRSC26984 | -0.092 | 1.82 | -0.833 | inactive
sl (small wing) | DRSC20377 | 1.01 | -1.64 | 1.71 | inactive
sl (small wing) | DRSC21782 | 0.476 | -0.0706 | 0.176 | inactive
AIMP2 (aaRS-interacting multifunctional protein 2) | DRSC09877 | 0.299 | -6.92 | -0.124 | inactive
AIMP2 (aaRS-interacting multifunctional protein 2) | DRSC26797 | 0.37 | 0.323 | 0.0322 | inactive
CG2111 | DRSC18205 | 1.79 | -1.62 | -0.428 | inactive
CG2111 | DRSC27609 | 0.26 | 1.41 | 0.394 | inactive
mGluR (metabotropic Glutamate Receptor) | DRSC17215 | -0.245 | 0.26 | 0.752 | inactive
CG31606 | DRSC01012 | -2.92 | -0.871 | -1.68 | active
Vha16-5 (Vacuolar H[+] ATPase 16kD subunit 5) | DRSC02986 | -3.3 | -0.61 | -1.02 | inactive
CG12236 | DRSC17831 | -3.75 | 0.74 | 0.488 | inactive
CG12236 | DRSC25773 | -1.51 | -1.72 | -1.46 | active
CG3792 | DRSC02725 | -0.875 | 0.246 | 0.181 | inactive
Sid (Stress induced DNase) | DRSC16588 | -3.57 | -2.99 | 0.898 | active
Sid (Stress induced DNase) | DRSC26318 | -2.6 | -2.42 | -0.22 | active

4 entries from above, limited to “Wolbachia per cell robust z, rep 2”:
CG13454 [DRSC10001]: -0.48
CG9676 [DRSC20204]: 0.342
CG12825 [DRSC06174]: 0.631
CG12825 [DRSC26984]: 1.82
